# Experimental data taken from patent US20200024330A1.
# B1: 5123_A06 (PGT-125) (antibody, V domains shown)
# VH: QSQLQESGPRLVEASETLSLTCNVSGESTGACTYFWGWVRQAPGKGLEWIGSLSHCQSFWGSGWTFHNPSLKSRLTISLDTPKNQVFLKLTSLTAADTATYYCARFDGEVLVYNHWPKPAWVDLWGRGIPVTVSS
# VL: QSALTQPPSASGSPGQSITISCNGTATNFVSWYQQFPDKAPKLIIFGVDKRPPGVPDRFSGSRSGTTASLTVSRLQTDDEAVYYCGSLVGNWDVIFGGGTTLTVL
# B2: 5114_A19 (PGT-128) (antibody, V domains shown)
# VH: QPQLQESGPTLVEASETLSLTCAVSGDSTAACNSFWGWVRQPPGKGLEWVGSLSHCASYWNRGWTYHNPSLKSRLTLALDTPKNLVFLKLNSVTAADTATYYCARFGGEVLRYTDWPKPAWVDLWGRGTLVTVSS
# VL: QSALTQPPSASGSPGQSITISCTGTSNNFVSWYQQHAGKAPKLVIYDVNKRPSGVPDRFSGSKSGNTASLTVSGLQTDDEAVYYCGSLVGNWDVIFGGGTKLTVL
# B3: 5329_C19 (PGT-136) (antibody, V domains shown)
# VH: QLQLQESGPGLVKPSETLSLTCTVSGGSMRGTDWGENDFHYGWIRQSSAKGLEWIGSIHWRGRTTHYKTSFRSRATLSIDTSNNRFSLTFSFVTAADTAVYYCARHKYHDIFRVVPVAGWFDPWGQGLLVTVSS
# VL: EIVMTQSPPTLSVSPGETATLSCRASQNVKNNLAWYQLKPGQAPRLLIFDASSRAGGIPDRFSGSGYGTDFTLTVNSVQSEDFGDYFCQQYEEWPRTFGQGTKVDIK
# B4: PGT-141 (antibody, V domains shown)
# VH: QVQLVQSGPEVKKPGSSVKVSCKASGNTFSKYDVHWVRQATGQGLEWVGWMSHEGDKTESAQRFKGRVTFTRDTSASTAYMELRGLTSDDTAIYYCTRGSKHRLRDYVLYDDYGLINYQEWNDYLEFLDVWGHGTAVTVSS
# VL: DTVVTQSPLSLPVTPGEAASMSCSSTQSLRHSNGANYLAWYQHKPGQSPRLLIRLGSQRASGVPDRFSGSGSGTHFTLKISRVEAEDAAIYYCMQGLNRPWTFGKGTKLEIK
# B5: PGT-142 (antibody, V domains shown)
# VH: B4 VH with M51I, G55R, S77T
# VL: B4 VL
# B6: PGT-143 (antibody, V domains shown)
# VH: B4 VH with V5E, P9A
# VL: B4 VL with S24T, A85P
# B7: PGT-144 (antibody, V domains shown)
# VH: B4 VH with P9A, S30R, T69S, T74N, M81I, R98G, Y118Q
# VL: B4 VL with P12S, S24T, E86D
# B8: PGT-145 (antibody, V domains shown)
# VH: QVQLVQSGAEVKKPGSSVKVSCKASGNSFSNHDVHWVRQATGQGLEWMGWMSHEGDKTGLAQKFQGRVTITRDSGASTVYMELRGLTADDTAIYYCLTGSKHRLRDYFLYNEYGPNYEEWGDYLATLDVWGHGTAVTVSS
# VL: EVVITQSPLFLPVTPGEAASLSCKCSHSLQHSTGANYLAWYLQRPGQTPRLLIHLATHRASGVPDRFSGSGSGTDFTLKISRVESDDVGTYYCMQGLHSPWTFGQGTKVEIK
# Target: 162-pseudovirus panel representing all major circulating HIV-1 subtypes
# Assay: cell-based or functional assay
Binder,Median IC50 (µg/ml) against viruses neutralized with an IC50 <50 µg/ml,"Percent viruses neutralized, IC50 <0.1 µg/ml","Percent viruses neutralized, IC50 <1 µg/ml","Percent viruses neutralized, IC50 <50 µg/ml"
B1,0.04 µg/mL,32%,40%,52%
B2,0.02 µg/mL,50%,60%,72%
B3,,3%,6%,16%

# Target: All HIV-1 pseudoviruses (Env) of the cross-clade 162-pseudovirus panel, n=162
# Assay: cell-based or functional assay
row,Binder,Median IC50 (µg/ml) against viruses neutralized with an IC50 <50 µg/ml
1,B1,0.78 µg/mL
2,B2,0.32 µg/mL
3,B3,2 µg/mL

# Target: Env of the clade A HIV-1 pseudoviruses of the cross-clade 162-pseudovirus panel (n = 26)
# Assay: cell-based or functional assay
row,Binder,Median IC50 against viruses neutralized with an IC50 <50 µg/ml
1,B4,0.22 µg/mL
2,B5,0.25 µg/mL
3,B6,0.27 µg/mL
4,B7,2.81 µg/mL
5,B8,0.4 µg/mL

# Target: Env of the clade AE HIV-1 pseudoviruses of the cross-clade 162-pseudovirus panel (n = 10)
# Assay: cell-based or functional assay
row,Binder,Median IC50 against viruses neutralized with an IC50 <50 µg/ml
1,B4,0.01 µg/mL
2,B5,0.01 µg/mL
3,B6,0.02 µg/mL
4,B7,0.1 µg/mL
5,B8,0.97 µg/mL

# Target: Env of the clade B HIV-1 pseudoviruses of the cross-clade 162-pseudovirus panel (n = 31)
# Assay: cell-based or functional assay
row,Binder,Median IC50 against viruses neutralized with an IC50 <50 µg/ml
1,B4,0.48 µg/mL
2,B5,0.4 µg/mL
3,B6,0.39 µg/mL
4,B7,3.37 µg/mL
5,B8,0.09 µg/mL

# Target: Env of the clade C HIV-1 pseudoviruses of the cross-clade 162-pseudovirus panel (n = 27)
# Assay: cell-based or functional assay
row,Binder,Median IC50 against viruses neutralized with an IC50 <50 µg/ml
1,B4,0.33 µg/mL
2,B5,0.09 µg/mL
3,B6,0.17 µg/mL
4,B7,0.85 µg/mL
5,B8,0.14 µg/mL

# Target: Env of the clade D HIV-1 pseudoviruses of the cross-clade 162-pseudovirus panel (n = 25)
# Assay: cell-based or functional assay
row,Binder,Median IC50 against viruses neutralized with an IC50 <50 µg/ml
1,B4,0.37 µg/mL
2,B5,0.19 µg/mL
3,B6,0.28 µg/mL
4,B7,2.13 µg/mL
5,B8,1.07 µg/mL

# Target: Env of the clade F HIV-1 pseudoviruses of the cross-clade 162-pseudovirus panel (n = 15)
# Assay: cell-based or functional assay
row,Binder,Median IC50 against viruses neutralized with an IC50 <50 µg/ml
1,B4,0.24 µg/mL
2,B5,0.22 µg/mL
3,B6,0.36 µg/mL
4,B7,0.51 µg/mL
5,B8,0.87 µg/mL

# Target: Env of the clade G HIV-1 pseudoviruses of the cross-clade 162-pseudovirus panel (n = 15)
# Assay: cell-based or functional assay
row,Binder,Median IC50 against viruses neutralized with an IC50 <50 µg/ml
1,B4,0.3 µg/mL
2,B5,0.21 µg/mL
3,B6,0.21 µg/mL
4,B7,3.84 µg/mL
5,B8,0.11 µg/mL

# Target: HIV-1 Env of all pseudoviruses of the cross-clade 162-pseudovirus panel (n = 162)
# Assay: cell-based or functional assay
row,Binder,Median IC50 (µg/ml) against all viruses
1,B2,0.1 µg/mL
2,B3,50 µg/mL

# Target: HIV-1 Env of the clade A pseudoviruses of the cross-clade 162-pseudovirus panel (n=26)
# Assay: cell-based or functional assay
row,Binder,Median IC50 (µg/ml) against viruses neutralized with an IC50 <50 µg/ml
1,B1,0.07 µg/mL

# Target: HIV-1 Env of the clade AE pseudoviruses of the cross-clade 162-pseudovirus panel (n=10)
# Assay: cell-based or functional assay
row,Binder,Median IC50 (µg/ml) against viruses neutralized with an IC50 <50 µg/ml
1,B1,0.22 µg/mL
2,B2,1.47 µg/mL

# Target: HIV-1 Env of the clade AG pseudoviruses of the cross-clade 162-pseudovirus panel (n=10)
# Assay: cell-based or functional assay
row,Binder,Median IC50 (µg/ml) against viruses neutralized with an IC50 <50 µg/ml
1,B1,0.05 µg/mL
2,B2,0.13 µg/mL

# Target: HIV-1 Env of the clade B pseudoviruses of the cross-clade 162-pseudovirus panel (n=31)
# Assay: cell-based or functional assay
row,Binder,Median IC50 (µg/ml) against viruses neutralized with an IC50 <50 µg/ml
1,B1,0.13 µg/mL
2,B3,2.09 µg/mL

# Target: HIV-1 Env of the clade C pseudoviruses of the cross-clade 162-pseudovirus panel (n=27)
# Assay: cell-based or functional assay
row,Binder,Median IC50 (µg/ml) against viruses neutralized with an IC50 <50 µg/ml
1,B1,0.18 µg/mL
2,B3,0.28 µg/mL

# Target: HIV-1 Env of the clade D pseudoviruses of the cross-clade 162-pseudovirus panel (n=25)
# Assay: cell-based or functional assay
row,Binder,Median IC50 (µg/ml) against viruses neutralized with an IC50 <50 µg/ml
1,B1,0.87 µg/mL
2,B2,0.12 µg/mL
3,B3,2.1 µg/mL

# Target: HIV-1 Env of the clade F pseudoviruses of the cross-clade 162-pseudovirus panel (n=15)
# Assay: cell-based or functional assay
row,Binder,Median IC50 (µg/ml) against viruses neutralized with an IC50 <50 µg/ml
1,B1,0.37 µg/mL
2,B2,1.17 µg/mL

# Target: HIV-1 Env of the clade G pseudoviruses of the cross-clade 162-pseudovirus panel (n=15)
# Assay: cell-based or functional assay
row,Binder,Median IC50 (µg/ml) against viruses neutralized with an IC50 <50 µg/ml
1,B1,0.05 µg/mL
2,B3,7.54 µg/mL

# Target: HIV-1 clade A pseudoviruses (Env) of the cross-clade 162-pseudovirus panel, n=26
# Assay: cell-based or functional assay
row,Binder,Percent viruses neutralized with an IC50 <50 µg/ml
1,B1,54%
2,B2,50%
3,B3,0%

# Target: HIV-1 clade B pseudoviruses (Env) of the cross-clade 162-pseudovirus panel, n=31
# Assay: cell-based or functional assay
row,Binder,Percent viruses neutralized with an IC50 <50 µg/ml
1,B1,58%
2,B2,77%
3,B3,3%

# Target: HIV-1 clade C pseudoviruses (Env) of the cross-clade 162-pseudovirus panel, n=27
# Assay: cell-based or functional assay
row,Binder,Percent viruses neutralized with an IC50 <50 µg/ml
1,B1,26%

# Target: HIV-1 clade D pseudoviruses (Env) of the cross-clade 162-pseudovirus panel, n=25
# Assay: cell-based or functional assay
row,Binder,Percent viruses neutralized with an IC50 <50 µg/ml
1,B1,28%
2,B2,48%
3,B3,4%

# Target: HIV-1 clade F pseudoviruses (Env) of the cross-clade 162-pseudovirus panel, n=15
# Assay: cell-based or functional assay
row,Binder,Percent viruses neutralized with an IC50 <50 µg/ml
1,B1,20%
2,B2,53%
3,B3,0%

# Target: HIV-1 clade G pseudoviruses (Env) of the cross-clade 162-pseudovirus panel, n=15
# Assay: cell-based or functional assay
row,Binder,Percent viruses neutralized with an IC50 <50 µg/ml
1,B1,7%
2,B2,47%
3,B3,7%

# Target: HIV-1 pseudovirus panel of Table 52
# Assay: cell-based or functional assay
row,Binder,"median IC50, neutralizing activity over the panel"
1,B1,0.01 µg/mL

# Changes are numbered by the printed parent chain.
